Test system: strawberries
Assay: Average daily mass loss rate, residues and fungal growth of coated strawberries
Details: spray coated, 10 mg/mL in ethanol

Compound | visible residues on surface
CCCCCCCCCCCCCCCC(=O)OCC(O)CO (centres unmarked) [PA-1G, 2,3-dihydroxypropan-1-yl palmitate] | heavy (wide-spread visible residues covering most or all of the surface)
CCCCCCCCCCCCCCCC(=O)OC(CO)CO [PA-2G, 1,3-dihydroxypropan-2-yl palmitate] | heavy (wide-spread visible residues covering most or all of the surface)

Reference: patent publication US20250297116A1, “PRECURSOR COMPOUNDS FOR MOLECULAR COATINGS” (Apeel Technology, Inc., priority 2015, published 2025)
